Construct, isoform or probe ends are uncertain for at least one entry. Protein sequences can lack the tags named with them.
Molecular target: T1, His6-Lrp (Klebsiella oxytoca MIT 09-7231) (UniProt A0A181XPK7)
T1 sequence (looked up, limits assumed): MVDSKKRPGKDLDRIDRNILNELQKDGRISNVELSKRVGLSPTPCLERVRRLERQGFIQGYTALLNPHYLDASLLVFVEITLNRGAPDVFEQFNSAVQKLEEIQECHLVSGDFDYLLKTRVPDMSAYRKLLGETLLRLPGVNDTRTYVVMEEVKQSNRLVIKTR
Assay: EMSA
Conditions: 7 mM L-leucine, recombinant protein

Sequence	binding result (positive control, 40 mM HEPES (pH not stated), 8 mM MgCl2, 50 mM KCl, 1 mM DTT, 0.1 mg/mL BSA, 0.2 uM DNA, 0-0.8 uM His6-Lrp, protein details: N-terminal His6, probe letters rebuilt from the primers and the genome)	binding result (shift at 0.4 and 0.8 uM Lrp, 40 mM HEPES ([…], room temperature 20 min, […], protein details: N-terminal His6, probe letters rebuilt from the primers and the genome)
CGTTGAAGGTCAATAGCCGTACCTGCTATCTCTCCTGGCATGAAGCGGCAGGCCGCGATAAAGGCCATCAGTGGATGGAAGAATTGCTGGTGAGTATCTGCCAGCGCTAAACTGTCGCAATACAAACGGGGGCTTCGGCTCCTGCTTTGTGTGACAAAAATCACTAAATGCAGAATTTTATTCTGTTTGCATTGTTCGGTAACCAACGCGGTCAGATAAAAAATGGATGATTTGCTGCTGTTGGTTATTTTCCCCGAGCATTGACTATCATATTTTCTTATCGCCGAAGTTTTTCACCGTGTTTTACCTGCGAATCTTTCTTTTATTCTTTTAATGCCGGTCAAGCGCCGACGCTCGCCAATTGCCTGCCCGTAAGCGAGCAGTTATGGTAACGGCATGCAGTCTATTCATCTCAATGCGAAGCTATTGCGCTTCGTCTTGTGCGAGCGCGCGGAAATCGGATTCCGCTGTCGTTAAAAACAATAAGCCGGGAGGCAAACCATGGAGAT (double strand) [ilvI regulatory region]	binds	–
TCTCTCCTGGAGAATTAGGAACGTTCACACGCATAAAATCTTCTCTTGAAGAAGAAATTAAAGATCTAAAGAAATGCCGCCAGCTTACCGTGAGATGCTTCTAAGAAAACACCGCAAAACAAGCAACATATAAGCAACACAAACATAACTAAGCGTTGCTTTCAATAGTCTATCTTCGAACCTCACCCTCAGTCAATTTGATTTCCAAAAAAAAATCATATAGCAAAAAATAAAAAACAATCAAAAATAATAACCATAAAAATCAATAACATGTAAAAACATAAATCAAATATAAATTTTTTTGATTGACATAATGCACTCATTGGCGTGCAATATTTGTGCAAACCGTATCGTCTTTCATGTCCAGTAAACAGACAAGGAATAGCACTTTCTCATCGCTTTTTTGTTAAAAAACAAACGAAAAACCTGTTAAATTTCGAGTGAGAGA (double strand) [aroX-npsA intergenic region WT]	–	binds

Source: paper PMC11774035
